Biological target: human opioid receptor-like receptor (ORL-1) (Homo sapiens, UniProt P41146)
Test: In vitro ORL-1 receptor binding assay ([3H]-nociceptin displacement)
Conditions: read-out: Ki [Average ± Std Deviation] ORL-1; membranes from recombinant HEK-293 cells; 0.1 nM [3H]-nociceptin

The chains behind the UniProt entries cited, without tags or fusion partners. Where a name states a change or a piece, a line headed by the entry shows the natural chain unless it says otherwise.
UniProt P41146: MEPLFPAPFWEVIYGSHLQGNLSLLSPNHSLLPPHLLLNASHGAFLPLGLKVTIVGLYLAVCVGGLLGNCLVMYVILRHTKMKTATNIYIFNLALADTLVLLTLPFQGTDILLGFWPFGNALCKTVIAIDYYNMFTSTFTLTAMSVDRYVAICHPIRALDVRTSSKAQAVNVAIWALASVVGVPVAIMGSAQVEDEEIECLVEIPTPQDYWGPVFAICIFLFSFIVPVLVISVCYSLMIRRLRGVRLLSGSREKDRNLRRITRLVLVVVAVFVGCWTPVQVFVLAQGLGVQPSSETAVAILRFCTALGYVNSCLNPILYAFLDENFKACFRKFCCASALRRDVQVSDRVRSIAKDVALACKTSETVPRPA

## O=C(O)CC(=O)N(Cc1ccccc1)C1CCN(C2CCCCCCC2)CC1
  Ki: > 20 µM

## O=C(O)CCN(C(=O)c1ccccc1)C1CCN(C2CCCCCCC2)CC1
  Ki: > 20 µM

From patent US10118927B2, “Substituted piperidin-4-amino-type compounds and uses thereof” (dated 2018)
